Human monoclonal antibodies against the spike receptor-binding domain (heavy:light variable regions). IC50 against pseudoviruses bearing the spike of naturally observed variants; lower = stronger; >10 µg/ml means not reached at the top dose. No active / inactive call. The stated detection limit is 0.0005 µg/ml; values near or below 0.001 µg/ml lie at the floor of the assay.
Key:
Test in all cases: pseudovirus neutralization IC50; higher = weaker neutralization
[1] = target: SARS-CoV-2 Omicron BA.1 spike pseudovirus
Procedure: (§1)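 Single-round VSV luciferase pseudovirus mixed with antibody dilutions for 1 h and put on Huh-7 cells for about a day; IC50 from the dose curve.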

[2] = target: SARS-CoV-2 Omicron BA.2 spike pseudovirus
Procedure: as §1

[3] = target: SARS-CoV-2 Omicron BA.2.75 spike pseudovirus
Procedure: as §1

[4] = target: SARS-CoV-2 Omicron BA.5 spike pseudovirus
Procedure: as §1

[5] = target: SARS-CoV-2 Omicron BQ.1.1 spike pseudovirus
Procedure: as §1

[6] = target: SARS-CoV-2 Omicron XBB spike pseudovirus
Procedure: as §1

[7] = target: SARS-CoV-2 early D614G spike pseudovirus
Procedure: as §1

B1: BD56-507 (protein)
chain 1: QVHLVQSGAEVKKPGASVKVSCKASGYTFSSYAISWVRQAPGQGLEWMGWITTYNGDTTYSEKLQGRVTMTTDTSTSTAYMDLRSLRSDDTAVYYCARDPGLYCSGVSCYREHDAFDFWGQGTMVTVSS
chain 2: EIVLTQSPATLSLSPGERATLSCRASQSVRGYLAWYQQKPGQAPRLLIYDSSNRATGVPARFTGSGSGADFTLSISSLEPEDYAVYYCQHRSNWPRPTFGGGTKVEIK
With B1 the “pseudovirus neutralization IC50” value [1] was 0.375 µg/mL, the “pseudovirus neutralization IC50” value [2] was 0.0267 µg/mL and the “pseudovirus neutralization IC50” value [3] was 0.0355 µg/mL. For the same binder, the “pseudovirus neutralization IC50” value [4] was > 10 µg/mL, the “pseudovirus neutralization IC50” value [5] was > 10 µg/mL and the “pseudovirus neutralization IC50” value [6] was > 10 µg/mL. For the same binder, the “pseudovirus neutralization IC50” value [7] was 0.011 µg/mL.

B2: BD56-495 (protein)
chain 1: QVQLVESGGGVVQPGRSLRLSCEASGFIFSSSAMHWVRQAPGKGLEWVAVISHDGGNEYYADSVKGRFTISRDNSKNTLYLQMNSLRVEDTAVYYCTKDRFLEWLLYSDFQYWGQGTLVTVSA
chain 2: DIQMTQSPSSLSASVGDRVTITCRASQNINNYLNWYQQKPGKAPKLLIYAASSLQSGVPSRFSGSGSGTDFTLTISSLQPEDFATYYCQQSDTFGQGTKLEIK
With B2 the “pseudovirus neutralization IC50” value [1] was 2.1 µg/mL, the “pseudovirus neutralization IC50” value [2] was 5.49 µg/mL and the “pseudovirus neutralization IC50” value [3] was > 10 µg/mL. For the same binder, the “pseudovirus neutralization IC50” value [4] was 5.28 µg/mL, the “pseudovirus neutralization IC50” value [5] was > 10 µg/mL and the “pseudovirus neutralization IC50” value [6] was > 10 µg/mL. The “pseudovirus neutralization IC50” value [7] was 0.905 µg/mL.

B3: BD56-516 (protein)
chain 1: QVQLVQSGSELKKPGASVKVSCKASGYTFTNHAMNWVRQAPGQGLEWMGWINTNTGDPLYAQGFTGRFVFSLDTSVSTAYLQISSLKAEDTAVYYCARDSGLLSFGQLFHAFDLWGQGTMVTVSS
chain 2: EIVLTQSPATLSLSPGERATLSCRASQSVNNYLAWYQQKPGQAPRLLIYDASHRATGIPGRFSGSGSGTDFTLTISSLEPEDFAVYYCQQRNNWLWTFGQGTKVEIK
With B3 the “pseudovirus neutralization IC50” value [1] was 0.011 µg/mL, the “pseudovirus neutralization IC50” value [2] was 0.0277 µg/mL and the “pseudovirus neutralization IC50” value [3] was > 10 µg/mL. For the same binder, the “pseudovirus neutralization IC50” value [4] was 8.48 µg/mL, the “pseudovirus neutralization IC50” value [5] was > 10 µg/mL and the “pseudovirus neutralization IC50” value [6] was > 10 µg/mL. The “pseudovirus neutralization IC50” value [7] was 0.0263 µg/mL.

B4: BD56-502 (protein)
chain 1: EVQLVESGGGLVKPGGSLRLSCAASGFTFSTYSMNWVRQAPGKGLEWVSSISGNTSYIYFADSVKGRFTISRDNAKNSLYLQMRSLRAEDTAVYYCARDTGQTGAYSSGWYDFHRPGLNWFDPWGQGTLVTVSS
chain 2: QSVLTQPPSASGTPGQRVTISCFGSSSNVGSNTVSWYQQLPGTAPKLLIYSNNQRPSGVPDRFSGSKSGTSASLAISGLQSEDEADYYCAAWDDSLNGAWVFGGGTKLTVL
In the case of B4, the “pseudovirus neutralization IC50” value [1] is reported as 1.3 µg/mL, the “pseudovirus neutralization IC50” value [2] is reported as 1.61 µg/mL and the “pseudovirus neutralization IC50” value [3] is reported as 1.44 µg/mL. The “pseudovirus neutralization IC50” value [4] was 5.57 µg/mL, the “pseudovirus neutralization IC50” value [5] was > 10 µg/mL and the “pseudovirus neutralization IC50” value [6] was > 10 µg/mL. For the same binder, the “pseudovirus neutralization IC50” value [7] was 0.285 µg/mL.

B5: BD56-503 (protein)
chain 1: QVTLRESGPALVKPTQTLTLTCTFSGFSFISNMSVSWVRQPPGKALEWLARIDWDDDKYYNRSLKTRLTISKDTSKNQVVLTMTNMDPVDTATYYCAREQWLVQRDYYGMDVWGQGTTVTVSS
chain 2: SYELTQPPSVSVSPGQTARITCSGNALAKQYGYWYQQKPGQAPVLVIYRDGERPSGIPERFSGSSSGTTVTLTISGVRAEDEADYYCQSADNGGSVFGGGTKLTVL
For B5, the “pseudovirus neutralization IC50” value [1] was > 10 µg/mL, the “pseudovirus neutralization IC50” value [2] was > 10 µg/mL and the “pseudovirus neutralization IC50” value [3] was > 10 µg/mL. For the same binder, the “pseudovirus neutralization IC50” value [4] was > 10 µg/mL, the “pseudovirus neutralization IC50” value [5] was > 10 µg/mL and the “pseudovirus neutralization IC50” value [6] was > 10 µg/mL. For the same binder, the “pseudovirus neutralization IC50” value [7] was > 10 µg/mL.

B6: BD56-496 (protein)
chain 1: QVQLVESGGGVVQPGRSLRLSCAASGFTFSSYTMHWVRQVPGKGLEWVAIISNDGTYKDYADSVKGRFTISRDNSKNTLYLQMNSLRPEDRAVYYCARDSDIVTTILFDYWGQGTLVTVSS
chain 2: DIQMTQSPSSLSASVGDRVTITCRASQSISRFLNWYQQKPGKAPKLLIYAASSLQSGVPSRFRGSGSGTNFTLTISSLQPEDFATYYCQQSYVNPQVTFGQGTRLEIK
With B6 the “pseudovirus neutralization IC50” value [1] was 6.9 µg/mL, the “pseudovirus neutralization IC50” value [2] was 7.38 µg/mL and the “pseudovirus neutralization IC50” value [3] was 5.04 µg/mL. For the same binder, the “pseudovirus neutralization IC50” value [4] was 7.1 µg/mL, the “pseudovirus neutralization IC50” value [5] was 7.13 µg/mL and the “pseudovirus neutralization IC50” value [6] was 7.55 µg/mL. The “pseudovirus neutralization IC50” value [7] was 1.61 µg/mL.
